From ChEMBL document CHEMBL1154198, “Chemical genetics of Plasmodium falciparum” (Nature, 2010)

Tested on: Plasmodium falciparum
Assay: ST_JUDE: Plasmodium falciparum 3D7 EC50 (uM) as measured by SYBR green dye
Type: functional, organism-based

Nc1nc(N)c([N+](=O)[O-])nc1[N+](=O)[O-]
pEC50: < 4.82

pEC50: −log10 of the molar value.
